Consider 2 molecules from US6841566B2, “Viral polymerase inhibitors” (Boehringer Ingelheim, Ltd., priority 2001, dated 2005).

By UniProt entry, the sequences of proteins in these tests, tags left out. Chains listed by the source or under a name are the forms on record and can include a tag or linker. Residues count along the entry.
UniProt P26663, 2420-3010 with tags or gaps with the stated changes: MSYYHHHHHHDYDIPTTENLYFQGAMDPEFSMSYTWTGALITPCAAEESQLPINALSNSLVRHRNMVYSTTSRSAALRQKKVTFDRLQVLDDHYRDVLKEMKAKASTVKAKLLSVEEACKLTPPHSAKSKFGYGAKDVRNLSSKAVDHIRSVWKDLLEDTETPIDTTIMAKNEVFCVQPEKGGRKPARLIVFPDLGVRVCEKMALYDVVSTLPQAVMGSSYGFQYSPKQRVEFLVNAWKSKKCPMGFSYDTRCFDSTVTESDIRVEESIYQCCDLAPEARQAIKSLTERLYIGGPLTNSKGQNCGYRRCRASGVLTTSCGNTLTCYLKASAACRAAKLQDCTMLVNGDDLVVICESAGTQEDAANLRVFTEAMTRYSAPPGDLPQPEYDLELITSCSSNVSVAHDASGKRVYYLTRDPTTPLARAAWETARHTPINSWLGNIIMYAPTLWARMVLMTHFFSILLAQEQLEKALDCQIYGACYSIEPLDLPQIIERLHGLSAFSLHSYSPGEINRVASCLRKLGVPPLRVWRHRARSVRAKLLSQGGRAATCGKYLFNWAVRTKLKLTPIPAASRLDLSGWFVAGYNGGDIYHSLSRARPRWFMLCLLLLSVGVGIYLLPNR

Assay [1] deals with hepatitis C virus RNA dependant polymerase (NS5B) (Hepatitis C virus genotype 1b, UniProt P26663). The conditions noted are these: HCV NS5B polymerase assay of Example 22.
Assay [2] deals with Huh7 cells that stably maintain a subgenomic HCV replicon (S22.3 cell-line). As to the kind of experiment: Cell based HCV RNA replication assay (S22.3 replicon cells, real-time RT-PCR). The conditions noted are these: 72 hours. As to the method:
Huh7 cells that stably maintain a subgenomic HCV replicon were established as previously described (Lohman et al., 1999. Science 285: 110-113) and designated as the S22.3 cell-line. S22.3 cells were maintained in Dulbecco's Modified […] Medium (DMEM) supplemented with 10% FBS and 0.5 mg/mL neomycin (Standard Medium). During the assay, DMEM medium supplemented with 10% FBS, containing 0.5% DMSO and lacking neomycin was used (Assay Medium). 16 hours prior to compound addition, S22.3 cells are trypsinized and diluted to 100 000 cells/ml in Standard Medium. 100μL (10 000 cells) are distributed into each well of a 96-well plate. The plate was then incubated at 37° C. with 5% CO2 until the next day.
10 μL of test compound (in 100% DMSO) was added to 2 ml of Assay Medium for a final DMSO concentration of 0.5% and the solution was sonicated for 15 min and filtered through a […] Millipore Filter Unit. 900 μl was transferred into row A of a Polypropylene Deep-Well Titer Plate. Rows B to H, contain 400 μL aliquots of Assay Medium (containing 0.5% DMSO), and were used to prepare serial dilutions (1/2) by transferring 400 μl from row to row (no compound was included in row H).
Cell culture medium was aspirated from the 96-well plate containing the S22.3 cells. […]
RNA was quantified on the STORM® system (Molecular Dynamics®) using the RiboGreen® RNA Quantification Kit (Molecular Probes®). […]

For orientation: IC50 means the concentration that inhibits the measured activity by half. Low values mean greater potency in that assay, high ones weaker potency in that assay. As a reminder, the EC50 is the concentration that produces a half-maximal response.

Structures were worked out from names or drawings and are uncertain.

In assay [1], `CC1CCCC(C)C1n1c(-c2ccoc2)nc2cc(C(=O)NC3(C(=O)Nc4ccc(/C=C/C(=O)O)cc4)CCCC3)ccc21` (stereo not shown) displayed an IC50 of 0.5 to 5 µM. The molecule also yielded an EC50 in assay [2] below 5 µM.

Consider `Cn1c(C(=O)O)cc2cc(NC(=O)C3(NC(=O)c4ccc5c(c4)nc(-c4ccoc4)n5C4CCCCC4)CCCNC3)ccc21` (single isomer, unassigned), for which the IC50 in assay [1] is below 0.5 µM. This molecule gave an EC50 in assay [2] below 5 µM.
